# Genome-wide point mutation profile of HIV-1: Nef

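Seven fragments of pNL4-3 were mutated by error-prone PCR, and each virus pool was passaged in CEM T cells. Sequencing gave the RC index: frequency after two rounds over frequency in the input plasmid.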

Protein: Nef of HIV-1 NL4-3, numbered from its first residue.
From base 9076 on, changes also alter the 3' U3.
Effects on overlapping genes or RNA elements are not listed.

A higher RC index is a better tolerated change; approximate classes are lethal up to 0.1, attenuated to 0.2, tolerated above. Each entry names the wild-type residue, its position and the residue put in its place. Input reads are the counts in the plasmid library. Nucleotide positions follow pNL4-3.

{"substitution": "G2A", "base": "G8791C", "input reads": "71", "RC": 0.273}
{"substitution": "S8R", "base": "T8810A", "input reads": "387", "RC": 0.583}
{"substitution": "I11T", "base": "T8818C", "input reads": "351", "RC": 0.323}
{"substitution": "S45N", "base": "G8920A", "input reads": "265", "RC": 0.964}
{"substitution": "S46C", "base": "A8922T", "input reads": "208", "RC": 0.434}
{"substitution": "N51I", "base": "A8938T", "input reads": "432", "RC": 0.846}
{"substitution": "W57L", "base": "G8956T", "input reads": "178", "RC": 0.674}
{"substitution": "Q61E", "base": "C8967G", "input reads": "35", "RC": 0.927}
{"substitution": "E62D", "base": "G8972T", "input reads": "313", "RC": 0.969}
{"substitution": "V70L", "base": "G8994C", "input reads": "118", "RC": 0.777}
{"substitution": "P72A", "base": "C9000G", "input reads": "54", "RC": 0.392}
{"substitution": "P78Q", "base": "C9019A", "input reads": "135", "RC": 1.84}
{"substitution": "K82E", "base": "A9030G", "input reads": "315", "RC": 0.555}
{"substitution": "D86G", "base": "A9043G", "input reads": "352", "RC": 0.667}
{"substitution": "S88R", "base": "C9050G", "input reads": "35", "RC": 0.275}
{"substitution": "H89Q", "base": "C9053A", "input reads": "111", "RC": 0.866}
{"substitution": "F90Y", "base": "T9055A", "input reads": "295", "RC": 0.606}
{"substitution": "F90L", "base": "T9056A", "input reads": "264", "RC": 0.699}
{"substitution": "L91S", "base": "T9058C", "input reads": "207", "RC": 0.0557}
{"substitution": "E93G", "base": "A9064G", "input reads": "212", "RC": 0.490}
{"substitution": "E98Q", "base": "G9078C", "input reads": "30", "RC": 0.449}
{"substitution": "E98G", "base": "A9079G", "input reads": "421", "RC": 0.306}
{"substitution": "I101F", "base": "A9087T", "input reads": "317", "RC": 1.16}
{"substitution": "S103C", "base": "C9094G", "input reads": "59", "RC": 0.880}
{"substitution": "R105S", "base": "A9101T", "input reads": "189", "RC": 0.702}
{"substitution": "L110H", "base": "T9115A", "input reads": "432", "RC": 0.463}
{"substitution": "W113R", "base": "T9123A", "input reads": "552", "RC": 0.408}
{"substitution": "W124G", "base": "T9156G", "input reads": "75", "RC": 0.538}
{"substitution": "Y127N", "base": "T9165A", "input reads": "331", "RC": 0.232}
{"substitution": "G140E", "base": "G9205A", "input reads": "234", "RC": 0.863}
{"substitution": "G140V", "base": "G9205T", "input reads": "111", "RC": 0.446}
{"substitution": "C142R", "base": "T9210C", "input reads": "248", "RC": 0.326}
{"substitution": "Y143H", "base": "T9213C", "input reads": "275", "RC": 0.417}
{"substitution": "K158N", "base": "A9260C", "input reads": "52", "RC": 0.501}
{"substitution": "L170Q", "base": "T9295A", "input reads": "343", "RC": 0.745}
{"substitution": "D174Y", "base": "G9306T", "input reads": "205", "RC": 0.699}
{"substitution": "D174G", "base": "A9307G", "input reads": "343", "RC": 0.403}
{"substitution": "D175V", "base": "A9310T", "input reads": "259", "RC": 0.559}
{"substitution": "P176T", "base": "C9312A", "input reads": "283", "RC": 0.760}
{"substitution": "W183L", "base": "G9334T", "input reads": "314", "RC": 0.419}
{"substitution": "F185I", "base": "T9339A", "input reads": "279", "RC": 0.611}
{"substitution": "S187R", "base": "C9347G", "input reads": "106", "RC": 0.271}
{"substitution": "H192R", "base": "A9361G", "input reads": "445", "RC": 0.934}
{"substitution": "E197D", "base": "G9377C", "input reads": "147", "RC": 0.747}
{"substitution": "H199N", "base": "C9381A", "input reads": "54", "RC": 0.344}
{"substitution": "C206Y", "base": "G9403A", "input reads": "498", "RC": 1.20}

Excerpt, the final 3 entries:

E197D (base G9377C, input reads 147): 0.747.
H199N (base C9381A, input reads 54): 0.344.
C206Y (base G9403A, input reads 498): 1.20.

Clones carried about five changes per kilobase, which can drag down the index of neutral changes. The authors read an index above 1 as above wild type (1.9% of all changes in the genome).

Reference: Al-Mawsawi et al. 2014, doi:10.1186/s12977-014-0124-6.